{
  "source": "patent US7048924B2",
  "about": "“Combination antiviral and interleukin-2 therapy for HIV infection” (Chiron Corporation, priority 2000, dated 2006)",
  "origin": "cited, not measured here",
  "tested_on": "HIV",
  "settings": "low-dose daily subcutaneous IL-2, HAART discontinued",
  "data": [
    {"substance": "IL-2: lymphokine interleukin-2, given as low-dose daily subcutaneous injection in the cited trial", "values": [
      {"measurement": "Course of plasma virus levels after the peak", "setting": "9 subjects with HIV infection", "value": "subsequently declined in concert with a rise in CD8+ T cells"},
      {"measurement": "Onset of transient surge in viremia after discontinuation of HAART (mean)", "setting": "9 subjects with HIV infection", "value": "about 19 days"},
      {"measurement": "Time from onset of the surge in viremia to its peak", "setting": "9 subjects with HIV infection", "value": "roughly two"},
      {"measurement": "Mean virus concentration relative to the peak concentration", "setting": "by 6 weeks after the onset of viremia", "value": "less than 10%"}
    ]}
  ]
}
